Measured data: PubChem BioAssay AID504761 (Drosophila RNAi Screening Center, 2011)
In all, the deposit lists about 22,000 reagents; this is a random part of those that have a named target and a result. In the full data, 116 (0.52%) are marked active. 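Calls depend on retest data that are not deposited; infection was ranked per plate without normalising between plates; the unit of the infection score is not given.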 The raw values are shown without normalisation. A number with no mark means an inactive call. Names joined by + are all predicted targets of the reagent. Reagent sequences are not shown. Not given: the amount of reagent, the time to read-out.

Purpose: 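Genome-wide fly cell screen for genes dengue virus requires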 (primary screen)
Cell system: D.Mel-2 cells from Drosophila
Reagent: long dsRNA against Drosophila genes
Conditions: infection with dengue virus type 2; dose and infection time not stated
Detection: 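Per well on two replicate plates, imaging gave the percent of cells positive for viral envelope protein, ranked by infection, and a nuclear count of cells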
Direction: infection score: higher = more virus-infected cells; cell count: higher = more cells in the well
Hit rule: 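Low infection ranks in the two replicates (chance level up to 0.065) followed by a retest with a 1.5-fold or larger significant decrease, p below 0.05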
Meaning of the calls: active = confirmed: knock-down lowers infection; inactive = not picked or not confirmed

no.	Target gene	DRSC id	infection score, replicate 1	infection score, replicate 2	cell count, replicate 1	cell count, replicate 2
1	Grik	DRSC15846	3.23	5.37	6402	6685
2	Grik	DRSC15847	2.16	7.39	6947	5659
3	Grik	DRSC26067	2.36	1.24	6136	6290
4	dpn (deadpan)	DRSC07605	4.25	8.28	6712	6510
5	dpn (deadpan)	DRSC28443	13.9	4.72	6217	6180
6	CG12347	DRSC14502	0.81	4.51	7192	6668
7	CG11247	DRSC11643	2.75	6.67	7336	7017
8	CG11247	DRSC21901		3.93	392	636
9	CG11247	DRSC26558	13.1	21.4	5908	5581
10	CG17666	DRSC10276	0.73	2.74	5785	6101
11	CG17666	DRSC26761	13.8	2.66	5999	6500
12	CG6788 + CR32496	DRSC22043	7.04	6.42	6123	6046
13	CG12376	DRSC06144	14.6	4.05	6283	6252
14	CG12376	DRSC29464	24.6	17.2	4466	5676
15	pgc (polar granule component)	DRSC04099	16.8	13.8	6352	6059
16	CG9853	DRSC12343	19.4	19.7	5589	5992
17	CG9853	DRSC22840	1.49	4.22	5887	6254
18	CG9853	DRSC28399	0.23		439	375
19	sd (scalloped)	DRSC20370	11.5	22.6	6107	6075
20	CG32462	DRSC11851	3.16	11.3	6450	6741
21	CG32462	DRSC29458	21	20.8	5605	4367
22	omd (oocyte maintenance defects)	DRSC16507	2.26	5.87	4337	4191
23	omd (oocyte maintenance defects)	DRSC29369	18.7	3.05	4649	1412
